Pooled drug test results. Numbers come from NIAID ChemDB, via PubChem.

Shared fields: tests in culture; species: HIV-2; cells: MT-4; read-out: EC50

Conditions beyond the fields shown may differ between rows. ECn: concentration that inhibits the pathogen or its effect by n%. Blank or dashed fields: not listed here.

structure | strain or isolate | read by | result
CCOC(=O)CCCCn1c(Cc2ccccc2)c(C(C)C)c(=O)[nH]c1=O | EHO | cytopathic effect / MTT | >100 µM
C#Cc1ccc(Nc2nccc(Oc3c(C)cc(-c4cn(CCc5cccs5)nn4)cc3C)n2)cc1 | ROD | MTT | >5.53 µM
C=Cn1cc(C(=O)O)c(=O)c2ccc(N3CCN(c4nc5ccccc5o4)CC3)nc21 | ROD | MTT | >1.03 µM
Fc1cccc(-c2nnc3sc(CC45CC6CC(CC(C6)C4)C5)nn23)c1 | ROD | cytopathic effect / MTT | >125 µg/mL
CCOC(=O)CCCn1c(Cc2ccccc2)c(C(C)C)c(=O)[nH]c1=O | EHO | cytopathic effect / MTT | >65 µM
CCOC(=O)CNc1nc(Nc2ccc(Cl)cc2)nc(Oc2cc(=O)oc3ccccc23)n1 | ROD | MTT | >45.6 µg/mL
CC(NS(=O)(=O)c1ccc(Cl)cc1)c1nnc(SCc2ccc(Br)cc2)o1 | ROD |  | >12.33 µg/mL
COc1c(Cl)cc(C(=CCNC(=O)C[C@H]2CC[C@]3(C)C4CC[C@@]5(C)C(CC[C@@H]5CC(=O)NCC=C(c5cc(Cl)c(OC)c(C(=O)O)c5)c5cc(Cl)c(OC)c(C(=O)O)c5)C4CC[C@H]3C2)c2cc(Cl)c(OC)c(C(=O)O)c2)cc1C(=O)O | ROD | cytopathic effect / MTT | 70 µM
COc1ccc(CCNc2nc(NC(=S)Nc3cccc(Cl)c3)nc(Oc3cc(=O)oc4ccccc34)n2)cc1OC | ROD | MTT | >16.78 µg/mL
CC(C)c1c(Cc2ccccc2)n(CCCCC(N)=O)c(=O)[nH]c1=O | EHO | cytopathic effect / MTT | >100 µM
CCCCCCC(C)[C@H]1CCC2C3CC[C@H]4C[C@@H](CCC=C(c5cc(Cl)c(O)c(C(=O)O)c5)c5cc(Cl)c(O)c(C(=O)O)c5)CC[C@]4(C)C3CC[C@@]21C | ROD | cytopathic effect / MTT | 4 µM
C#Cc1ccc(Nc2nccc(Oc3c(C)cc(-c4cn(Cc5ccc(C(=O)OC)cc5)nn4)cc3C)n2)cc1 | ROD | MTT | >128 µM
CC(C)=CCN1Cc2cccc3[nH]c(=O)n(c23)CC1C | EHO | cytopathic effect / MTT | >870 µM
Cc1ccc(S(=O)(=O)NC(C)c2nnc(SCc3ccc(F)cc3)o2)cc1 | ROD |  | >70.8 µg/mL
C[C@]12CCC3C(CC[C@H]4C[C@@H](CC=C(c5cc(Cl)c(O)c(C(=O)O)c5)c5cc(Cl)c(O)c(C(=O)O)c5)CC[C@]34C)C1CC[C@@H]2CC=C(c1cc(Cl)c(O)c(C(=O)O)c1)c1cc(Cl)c(O)c(C(=O)O)c1 | ROD | cytopathic effect / MTT | 60 µM
CSCCC(c1nnc(SCc2ccc(F)cc2)o1)N(Cc1ccc(F)cc1)S(=O)(=O)c1ccc(C)cc1 | ROD |  | >125 µg/mL
CC(C)(C)[Si](C)(C)OC[C@H]1O[C@@H](n2ccc(N)nc2=O)[C@H](O[Si](C)(C)C(C)(C)C)C12OS(=O)(=O)C=C2N |  | cytopathic effect | >350 µM
CC(C)(C)[Si](C)(C)OCC1O[C@@H](NC(=O)NC(=O)c2ccccc2)C(O[Si](C)(C)C(C)(C)C)C12OS(=O)(=O)C=C2N | ROD | cytopathic effect / trypan blue | >10 µM
Brc1cccc(-c2nnc3sc(CC45CC6CC(CC(C6)C4)C5)nn23)c1 | ROD | cytopathic effect / MTT | >125 µg/mL
Nn1cc(C(=O)O)c(=O)c2ccc(N3CCN(c4nc5ccccc5s4)CC3)nc21 | ROD | MTT | 2.57 µM
CC(C)c1c(Cc2ccccc2)n(CCCC(N)=O)c(=O)[nH]c1=O | EHO | cytopathic effect / MTT | >100 µM
Cc1cn([C@@H]2O[C@H](CO[Si](C)(C)C(C)(C)C)C3(OS(=O)(=O)C=C3N)[C@H]2O[Si](C)(C)C(C)(C)C)c(=O)nc1N |  | cytopathic effect | >13.5 µM
Cn1cc(C(=O)O)c(=O)c2cc(N)c(N3CCN(c4ccccn4)CC3)nc21 | ROD | MTT | 2.57 µM
Cc1ccc(-c2nnc3sc(CC45CC6CC(CC(C6)C4)C5)nn23)cc1 | ROD | cytopathic effect / MTT | >125 µg/mL
CCOC(=O)CNc1nc(Nc2cccc(C)c2)nc(Oc2cc(=O)oc3ccccc23)n1 | ROD | MTT | >65.28 µg/mL
Clc1ccccc1-c1nnc2sc(CC34CC5CC(CC(C5)C3)C4)nn12 | ROD | cytopathic effect / MTT | >12.4 µg/mL
Cn1cc(C(=O)O)c(=O)c2cnc(N3CCN(c4nc5ccccc5s4)CC3)cc21 | ROD | MTT | >297 µM
CSCCC(NS(=O)(=O)c1ccc(Cl)cc1)c1nnc(SCc2ccc(F)cc2)o1 | ROD |  | >13.65 µg/mL
Cn1cc(C(=O)O)c(=O)c2ncc(N3CCN(c4nc5ccccc5s4)CC3)cc21 | ROD | MTT | >119 µM
COc1c(Cl)cc(C(=CCCCCN[C@@H]2CC[C@]3(C)C4CC[C@@]5(C)C(CC[C@@H]5C(C)CCCC(C)C)C4CC[C@H]3C2)c2cc(Cl)c(OC)c(C(=O)O)c2)cc1C(=O)O | ROD | cytopathic effect / MTT | >150 µM
Brc1ccc(-c2nnc3sc(CC45CC6CC(CC(C6)C4)C5)nn23)cc1 | ROD | cytopathic effect / MTT | >125 µg/mL
CC(C)c1c(Cc2ccccc2)n(CC(N)=O)c(=O)[nH]c1=O | EHO | cytopathic effect / MTT | >100 µM
CCOC(=O)CNc1nc(Nc2ccccc2Cl)nc(Oc2cc(=O)oc3ccccc23)n1 | ROD | MTT | >67.7 µg/mL
Cc1ccc(S(=O)(=O)NC(Cc2ccccc2)c2nnc(SCc3ccc(Cl)cc3)o2)cc1 | ROD |  | >99.4 µg/mL
Cn1cc(C(=O)O)c(=O)c2ccc(N3CCN(c4ccccn4)CC3)nc21 | ROD | MTT | 0.04 µM
Cc1cccc(-c2nnc3sc(CC45CC6CC(CC(C6)C4)C5)nn23)c1 | ROD | cytopathic effect / MTT | >10.9 µg/mL
C=Cn1cc(C(=O)O)c(=O)c2ccc(N3CCN(c4nccs4)CC3)nc21 | ROD | MTT | 4.93 µM
Cc1cn([C@H]2C[C@H](N=[N+]=[N-])[C@@H](CO)O2)c(=O)[nH]c1=O | IIIB | MTT | 0.00061 µg/mL

4 of the rows above, restated:

structure	strain or isolate	read by	result
CCOC(=O)CNc1nc(Nc2ccccc2Cl)nc(Oc2cc(=O)oc3ccccc23)n1	ROD	MTT	>67.7 µg/mL
Fc1cccc(-c2nnc3sc(CC45CC6CC(CC(C6)C4)C5)nn23)c1	ROD	cytopathic effect / MTT	>125 µg/mL
C#Cc1ccc(Nc2nccc(Oc3c(C)cc(-c4cn(CCc5cccs5)nn4)cc3C)n2)cc1	ROD	MTT	>5.53 µM
Nn1cc(C(=O)O)c(=O)c2ccc(N3CCN(c4nc5ccccc5s4)CC3)nc21	ROD	MTT	2.57 µM